Results: patent US20100284992A1 (priority 2006, published 2010)

Target: Pseudomonas aeruginosa hemolytic phospholipase C PlcHR2 variant T178A (Thr178Ala) (Pseudomonas aeruginosa, UniProt P06200, T178A)
Assay: ρ-Nitrophenyl-Phosphorylcholine (NPPC) enzymatic assay, T178A PlcHR2 mutant
Details: substrate NPPC; 100 mM Tris-HCl (pH 7.2), 25% glycerol, 37° C.; T178A 0.05 μg/ml; four independent determinations

C[N+](C)(C)CCOP(=O)([O-])Oc1ccc([N+](=O)[O-])cc1 [NPPC, ρ-nitrophenyl-phosphorylcholine]
Vmax: 4.85 ± 1 µmol/min/mg
